Anti-infective test results gathered from many reports (values: NIAID ChemDB through PubChem).

Shared fields: tests in culture; organism: HIV-1; cell line: MT-4; measure: fold resistance

Lines come from different laboratories, so protocols vary. Fold resistance has wild type as its base. An empty or dashed field is not shown.

compound | strain or isolate | mutations | read by | value
Cc1cc(S(N)(=O)=O)ccc1NC(=O)COc1ccc(Cl)cc1C(=O)c1cccc(C#N)c1 | Nevirapine-resistant (RT Y181C) | RT-Y181C | cytopathic effect / propidium iodide | ~1
N#Cc1cc2[nH]c3ccccc3c2n(-c2ccc([N+](=O)[O-])cc2)c1=O | F | RT-Y188L | cytopathic effect / MTT | 4
Cc1ccc(Oc2cn(C)c(=O)c(Nc3ccc(F)cc3)n2)c(C)c1 | - | RT-Y181C | cytopathic effect / MTT | >7.95
CC(C)[C@H](NC(=O)OCc1ccccn1)C(=O)N[C@@H](Cc1ccccc1)[C@@H](O)C[C@H](Cc1ccccc1)NC(=O)OCc1cccnc1 | NL4-3 | PR-L10R M46I L63P V82T I84V | p24 | 3.75
Cn1c2ccccc2c2c1cc(C#N)c(=O)n2-c1ccc([N+](=O)[O-])cc1 | G | RT-V106A F227L | cytopathic effect / MTT | 3
Cc1cc(C)c(S(=O)(=O)c2nc(Nc3ccc(C#N)cc3)c(=O)n(C)c2C)c(C)c1 | - | RT-Y188L | cytopathic effect / MTT | 399
CCc1c(C)[nH]c(=O)c(I)c1Oc1cc(C)cc(C)c1 | - | RT-K103N | cytopathic effect / MTT | 3
CC1(C)Oc2ccc3ccc(=O)oc3c2[C@@H](OC(=O)C23CCC(C)(C(=O)O2)C3(C)C)[C@H]1OC(=O)C12CCC(C)(C(=O)O1)C2(C)C | NL4-3 | RT-E138K | p24 | 100
Cc1cc(C#N)cc(C)c1Oc1nc(Nc2ccc(C#N)cc2)ncc1SCC(N)=O | - | K103N | MTT | 1.9
CS(=O)(=O)Nc1ccc(NC(=O)COc2ccc(Cl)cc2C(=O)c2ccccc2)cc1 | Nevirapine-resistant (RT Y181C) | RT-Y181C | cytopathic effect / propidium iodide | ~10
Cc1ccccc1Oc1nc(Nc2ccc(C#N)cc2)c(=O)n(C)c1C | - | RT-Y188L | cytopathic effect / MTT | 126.2
Cc1cc(C#N)cc(C)c1Oc1nc(Nc2ccc(C#N)cc2)ncc1SCC(=O)NC1CCN(C(=O)OC(C)(C)C)CC1 | - | RES056 | MTT | 75.1
CCc1c(C)[nH]c(=O)c(SC)c1Oc1cc(C)cc(C)c1 | - | RT-L100I | cytopathic effect / MTT | 10
Cc1cc(C#N)cc(C)c1Oc1nc(Nc2ccc(C#N)cc2)ncc1SCC(=O)Nc1ccc(S(C)(=O)=O)cc1 | - | Y181C | MTT | 14.4
N#Cc1cc(Cl)cc(Oc2c(Br)ccc(CC(=O)Nc3ccc(S(N)(=O)=O)cc3Cl)c2F)c1 | - | K103N | - | 1
O=C(COc1ccc(Cl)cc1C(=O)c1nccs1)Nc1ccccc1 | Nevirapine-resistant (RT Y181C) | RT-Y181C | cytopathic effect / propidium iodide | ~10
COCCNC(=O)CSc1cnc(Nc2ccc(C#N)cc2)nc1Oc1c(C)cc(C#N)cc1C | - | E138K | MTT | 2.3
CCc1c(C)[nH]c(=O)c(Sc2ccccc2)c1Oc1cc(C)cc(C)c1 | - | RT-Y181C | cytopathic effect / MTT | 16
Cc1cc(C#N)cc(C)c1Oc1nc(Nc2ccc(C#N)cc2)ncc1SCC(=O)NCCN1CCN(C(=O)OC(C)(C)C)CC1 | - | RES056 | MTT | 3.7
C[C@@H]1CCO[C@H]2Cn3cc(C(=O)NCc4ccc(F)cc4F)c(=O)c(O)c3C(=O)N12 | NL4-3 | NRTI/NNRTI resistant NLAY351753 | luminescence | 1
Nc1nc(=O)n([C@H]2C=C[C@@H](CO)O2)cc1F | XM-M184V | RT-M184V | p24 | 1.4
C#CCNC(=O)CSc1cnc(Nc2ccc(C#N)cc2)nc1Oc1c(C)cc(C#N)cc1C | - | Y188L | MTT | 7.9
Cc1cc(S(N)(=O)=O)ccc1NC(=O)COc1ccc(Cl)cc1C(=O)c1cc(F)cc(C#N)c1 | Nevirapine-resistant (RT Y181C) | RT-Y181C | cytopathic effect / propidium iodide | ~1
CCc1c(C)[nH]c(=O)c(CC)c1Oc1cc(C)cc(C)c1 | - | RT-Y181C | cytopathic effect / MTT | 13
Cc1cn([C@H]2C=C[C@@H](CO)O2)c(=O)[nH]c1=O | XM-ABC-resistant | RT-K65R L74V M184V Y115F | p24 | 2.7
CCc1c(C)[nH]c(=O)c(C2CC2)c1Oc1cc(C)cc(C)c1 | - | RT-L100I | cytopathic effect / MTT | 6
Cc1cc(C#N)cc(C)c1Oc1nc(Nc2ccc(C#N)cc2)ncc1SCC(=O)NCC1CCCO1 | - | K103N | MTT | 0.6
Cc1ccc(C2CC2)c(-c2ccc3c(c2)CCCO3)c1[C@H](OC(C)(C)C)C(=O)O | NL4-3 | PI-resistant ARP-11803 (L33F/E34T/K43T/G48V/I54S/L63P/A71V/V82A) | luminescence | 1
Cc1cc(C#N)cc(C)c1Oc1nc(Nc2ccc(C#N)cc2)ncc1SCC(=O)NCCN1CCOCC1 | - | Y188L | MTT | 7.3
O=C(COc1ccc(Cl)cc1C(=O)c1ccco1)Nc1ccc2cn[nH]c2c1 | Nevirapine-resistant (RT Y181C) | RT-Y181C | cytopathic effect / propidium iodide | ~10